A mixed list of measured activities; the numbers were collected in NIAID ChemDB.

Common to all: whole-cell or culture tests; species: HIV-1; cell line: MT-4; measure: EC50

Conditions beyond the fields shown may differ between rows. a–b is a range or a potency band. An empty or dashed field is not shown. ECn is the concentration giving n% inhibition of infection, replication or growth.

SMILES | strain | mutations | read by | result
Cc1ccccc1C(C)c1c(C)c(=O)[nH]c(=O)n1COCc1ccccc1 | IIIB | F227L + V106A | MTT | >343 µM
Cc1cc(C#N)cc(C)c1Oc1nc(NC2CCN(Cc3ccc(S(C)(=O)=O)cc3)CC2)nc2sccc12 | IIIB | NNRTI-resistant (RT K103N) | MTT | 0.00164 µM
CS(=O)(=O)c1ccc(NC(=O)COc2ccc(Cl)c(Oc3cc(Cl)cc(C#N)c3)c2)c(Cl)c1 | - | - | p24 | <20 µM
CC(=O)N1CCn2c(nc(C(=O)NCc3ccc(F)cc3)c(O)c2=O)C1(C)C | - | - | p24 | <1 µM
S=C(NCCc1ccccc1)N1CCOCC1 | - | - | cytopathic effect / XTT | >10 µg/mL
Cc1cc(/C=C/C#N)cc(C)c1Oc1nc(NC2CCN(Cc3cccc(C#N)c3)CC2)nc2ccsc12 | IIIB | NNRTI-resistant (RT L100I) | MTT | 0.00804 µM
N#Cc1cc(Cl)cc(Oc2cc(OCc3[nH]nc4nc(N5CCOCC5)ccc34)ccc2Cl)c1 | - | - | p24 | <20 µM
Cc1cc(/C=C/C#N)cc(C)c1Oc1nc(NC2CCN(Cc3ccncc3)CC2)nc2ccsc12 | IIIB | NNRTI-resistant (RT L100I) | MTT | 0.00635 µM
COc1ccccc1C(C)c1c(C)c(=O)[nH]c(=O)n1COCc1ccccc1 | IIIB | - | MTT | >329 µM
Cc1cc(C#N)cc(C)c1Oc1nc(NC2CCN(Cc3ccc(S(N)(=O)=O)cc3)CC2F)nc2ccsc12 | IIIB | NNRTI-resistant (RT L100I) | MTT | 0.00894 µM
Cc1cc(C#N)cc(C)c1Oc1nc(Nc2ccc(C#N)cc2)ncc1SCC(=O)NCc1ccc(O)cc1 | - | E138K | MTT | 0.0273 µM
CC1(C)c2nc(C(=O)NCc3ccc(F)cc3)c(O)c(=O)n2CCN1CC(=O)N1CCCC1 | - | - | p24 | <1 µM
COc1ccc(C(O)(c2c(C)c(=O)[nH]c(=O)n2COCc2ccccc2)C(C)C)cc1 | IIIB | - | MTT | >90.18 µM
COCCNC(=O)CSc1cnc(Nc2ccc(C#N)cc2)nc1Oc1c(C)cc(C#N)cc1C | - | RES056 | MTT | 0.351 µM
Cc1ccnc2c1NC(=O)c1cccnc1N2C1CC1 | IIIB | - | MTT | 0.19 µM
CC(C)(C)OC(=O)N1CCN(C(=O)c2ccc(C3=NN4C(C(=O)c5ccc(F)cc5)Oc5ccccc5C4C3)cc2)CC1 | LAI | - | GFP / reporter gene | >10 µM
CC(=O)N1CCc2nc(C(=O)NCc3ccc(F)cc3)c(O)c(=O)n2CC1 | - | - | p24 | <50 µM
Cc1cc(C#N)cc(C)c1Oc1nc(NC2CCN(Cc3ccc(S(N)(=O)=O)cc3)CC2C(=O)O)nc2ccsc12 | IIIB | NNRTI-resistant (RT K103N) | MTT | 0.827 µM
C=C(c1ccc(Cl)cc1)c1c(C)c(=O)[nH]c(=O)n1COCc1ccccc1 | IIIB | - | MTT | >34.49 µM
Cc1cc(C#N)cc(C)c1Oc1nc(Nc2ccc(C#N)cc2)ncc1SCC(=O)NCCCN1CCOCC1 | - | F227L V106A | MTT | 0.1059 µM
Cc1nc(NC(=O)NCCc2ccccc2)sc1C | - | - | RT activity | <10 µg/mL
O=C(NC1CCCC1)c1ccc(C2=NN3C(C(=O)c4ccc(C5CCCCC5)cc4)Oc4ccccc4C3C2)cc1 | LAI | - | GFP / reporter gene | 1–10 µM
C=C(c1ccccc1)c1c(C)c(=O)[nH]c(=O)n1COCc1ccccc1 | IIIB | E138K | MTT | 37.96 µM
Cc1cc(C#N)cc(C)c1Oc1nc(Nc2ccc(C#N)cc2)ncc1SCC(N)=O | - | RES056 | MTT | 0.734 µM
S=C(NCCc1ccccc1)N1CCCCC1 | - | - | cytopathic effect / XTT | >10 µg/mL
CCC(c1ccccc1C)c1c(C)c(=O)[nH]c(=O)n1COCc1ccccc1 | IIIB | - | MTT | >43.12 µM
COC(=O)c1ccc(Nc2ccc(OC)c3ccccc23)cc1 | - | - | MTT | >1.07 µM
CC(C)(C)c1csc(NC(=O)NCCc2ccccc2)n1 | - | - | cytopathic effect / XTT | >100 µg/mL
O=C(NC1CCCC1)c1ccc(C2=NN3C(C(=O)c4cccc(Br)c4)Oc4ccccc4C3C2)cc1 | LAI | - | GFP / reporter gene | <1 µM
Cc1cc(C#N)cc(C)c1Oc1nc(Nc2ccc(C#N)cc2)ncc1SCC(=O)NCCN1CCOCC1 | - | Y181C | MTT | 0.0235 µM
Cc1cc(OCCN(C)C)ccc1NC(=O)COc1ccc(Cl)c(Oc2cc(Cl)cc(C#N)c2)c1 | - | - | p24 | <20 µM
Cc1ccccc1CN1CCC(Nc2nc(Oc3c(C)cc(/C=C/C#N)cc3C)c3sccc3n2)CC1 | IIIB | NNRTI-resistant (RT L100I) | MTT | 0.0472 µM
N#Cc1cc(Cl)cc(Oc2cc(Cl)cc(OCC(=O)Nc3ccc4nc[nH]c4c3)c2)c1 | - | - | p24 | <20 µM
N#Cc1csc(NC(=O)NCCc2ccccc2)n1 | - | - | RT activity | <0.1 µg/mL
Cc1c(C(C)(O)c2ccc(F)cc2)n(COCc2ccccc2)c(=O)[nH]c1=O | IIIB | - | MTT | >237 µM
CCCCCCCCCCCCCCc1sc(NC(=O)NCCc2ccccc2)nc1-c1ccc(Cl)cc1 | - | - | cytopathic effect / XTT | >100 µg/mL
O=C(NC1CCCC1)c1ccc(C2=NN3C(C(=O)c4ccc(Br)cc4)Oc4ccccc4C3C2)cc1 | LAI | - | GFP / reporter gene | <1 µM
Cc1cccc(C(C)c2c(C(C)C)c(=O)[nH]c(=O)n2COCc2ccccc2)c1 | IIIB | E138K | MTT | 1.06 µM
Cc1cc(CN2CCn3c(nc(C(=O)NCc4ccc(F)cc4)c(O)c3=O)C2(C)C)on1 | - | - | p24 | <1 µM
O=C(NCCc1ccccc1)Nc1ccc(F)cc1 | - | - | cytopathic effect / XTT | >10 µg/mL
C=CCNC(=O)CSc1cnc(Nc2ccc(C#N)cc2)nc1Oc1c(C)cc(C#N)cc1C | - | F227L V106A | MTT | 0.1775 µM
Cc1cccc2sc(NC(=O)NCCc3ccccc3)nc12 | - | - | cytopathic effect / XTT | >10 µg/mL
CN(C)S(=O)(=O)N1CCn2c(nc(C(=O)NCc3ccc(F)cc3)c(O)c2=O)C1(C)C | - | - | p24 | <1 µM
Cc1cc(C#N)cc(C)c1Oc1nc(Nc2ccc(C#N)cc2)ncc1SCC(=O)NCCN1CCN(C(=O)OC(C)(C)C)CC1 | - | K103N | MTT | 0.0303 µM
Nc1nc(=O)n([C@@H]2CC[C@H](CO)O2)cc1F | RF | - | MTT | 1.5 µM
CC(=O)N1C(=O)[C@@H](Cc2ccccc2)NC1=S | - | - | cytopathic effect / XTT | <10 µg/mL
Cc1cc(C#N)cc(C)c1Oc1nc(Nc2ccc(C#N)cc2)ncc1SCC(=O)NC1CCN(C(=O)OC(C)(C)C)CC1 | - | Y181C | MTT | 0.0517 µM
O=C(Nc1cccnc1)c1ccc(C2=NN3C(C(=O)c4ccc(F)cc4)Oc4ccccc4C3C2)cc1 | LAI | - | GFP / reporter gene | 1–10 µM

The first 5 rows once more:

SMILES | strain | mutations | read by | result
Cc1ccccc1C(C)c1c(C)c(=O)[nH]c(=O)n1COCc1ccccc1 | IIIB | F227L + V106A | MTT | >343 µM
Cc1cc(C#N)cc(C)c1Oc1nc(NC2CCN(Cc3ccc(S(C)(=O)=O)cc3)CC2)nc2sccc12 | IIIB | NNRTI-resistant (RT K103N) | MTT | 0.00164 µM
CS(=O)(=O)c1ccc(NC(=O)COc2ccc(Cl)c(Oc3cc(Cl)cc(C#N)c3)c2)c(Cl)c1 | - | - | p24 | <20 µM
CC(=O)N1CCn2c(nc(C(=O)NCc3ccc(F)cc3)c(O)c2=O)C1(C)C | - | - | p24 | <1 µM
S=C(NCCc1ccccc1)N1CCOCC1 | - | - | cytopathic effect / XTT | >10 µg/mL